Zika virus NS2B-NS3: effect of single substitutions on growth in cell culture

Data from the supplement of Ni et al. 2025, doi:10.1038/s41467-025-63602-z.

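Mutant virus pools were grown in human Huh-7.5 cells. Deep sequencing gave the change in frequency of each mutant relative to wild type, averaged over three replicate libraries (two for positions 207-308).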

The scanned region of Zika virus MR766 is shown below (positions 1-308): NS2B is 2-131, NS3 begins at position 132.
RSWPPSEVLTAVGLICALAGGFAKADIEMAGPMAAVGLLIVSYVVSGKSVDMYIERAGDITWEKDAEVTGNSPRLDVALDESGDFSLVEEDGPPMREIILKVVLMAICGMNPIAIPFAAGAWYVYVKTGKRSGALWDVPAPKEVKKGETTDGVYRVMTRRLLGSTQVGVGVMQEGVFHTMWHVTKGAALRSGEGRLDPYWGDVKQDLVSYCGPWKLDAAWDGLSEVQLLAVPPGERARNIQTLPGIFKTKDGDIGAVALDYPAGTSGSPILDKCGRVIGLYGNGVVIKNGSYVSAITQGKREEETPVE

Values are log2 effects on growth: 0 is wild type, lower means poorer growth. Each line gives the wild-type residue and site, then new residues with their values. An asterisk is a stop codon; stop codons read about -7, near the floor of the assay. Values above 0 are not proof of better growth: six high scorers were tested one by one, five grew less well than wild type and one about as well. Position 1 still belongs to NS2A. In the paper, -1 or higher counts as tolerated. The region was split into three libraries (1-103, 104-206, 207-308).

R1: * -9.48, A -8.32, C -6.98, D -6.93, E -7.81, F -6.78, G -8.44, H -7.54, I -6.91, K -4.09, L -5.44, M -8.12, N -7.17, P -9.11, Q -8.23, S -8.86, T -8.85, V -8.35, W -5.40, Y -7.03
S2: * -8.73, A -1.95, C -3.72, D -6.55, E -7.21, F -6.40, G -1.77, H -6.20, I -6.51, K -7.01, L -7.96, M -7.30, N -7.28, P -7.37, Q -6.60, R -7.60, T -6.86, V -7.55, W -7.40, Y -6.60
W3: * -6.81, A -6.80, C -6.68, D -5.47, E -6.96, F -0.59, G -8.33, H -5.23, I -4.50, K -6.53, L -2.70, M -4.44, N -5.43, P -6.99, Q -6.72, R -8.47, S -7.88, T -7.03, V -7.19, Y -1.56
P4: * -7.14, A -4.49, C -5.09, D -5.25, E -5.62, F -5.03, G -6.59, H -2.65, I -5.07, K -6.28, L -6.71, M -5.33, N -5.16, Q -6.49, R -7.41, S -6.95, T -4.81, V -6.29, W -4.24, Y -4.97
P5: * -8.01, A -2.99, C -1.82, D -5.92, E -6.03, F -5.86, G -1.07, H -3.32, I -5.87, K -6.53, L -7.59, M -6.07, N 0.75, Q -0.75, R -3.81, S -0.77, T -2.99, V -6.29, W -6.09, Y -5.51
S6: * -7.57, A -0.03, C 0.51, D -5.83, E -4.72, F -5.35, G -0.68, H -0.45, I -6.82, K -4.82, L -6.72, M -4.04, N 0.41, P -1.92, Q -4.86, R -3.36, T 0.60, V -4.02, W -5.44, Y -3.66
E7: * -4.53, A -3.46, C -2.17, D -4.45, F -5.89, G -2.82, H -0.63, I -6.23, K -6.27, L -6.87, M -3.89, N -0.90, P -6.52, Q -0.98, R -6.82, S -3.11, T -7.08, V -7.39, W -5.65, Y -6.11
V8: * -6.61, A -2.90, C -2.50, D -5.40, E -5.78, F -3.39, G -3.27, H -4.23, I -1.46, K -4.99, L 0.31, M -1.77, N -5.60, P -0.06, Q -2.69, R -5.71, S -2.00, T -1.41, W -4.38, Y -4.16
L9: * -6.41, A -3.95, C -1.43, D -4.48, E -4.55, F -1.42, G -5.27, H -2.85, I -3.44, K -5.30, M -0.66, N -4.16, P -1.56, Q -4.01, R -6.57, S -4.40, T 0.04, V -2.79, W -3.49, Y -1.82

A selection of 11 entries from above:

- W3P = -6.99
- S2* = -8.73
- V8C = -2.50
- P5E = -6.03
- P5T = -2.99
- W3E = -6.96
- E7F = -5.89
- S2P = -7.37
- P4T = -4.81
- S6K = -4.82
- L9N = -4.16